Patent EP0286491B1, “Antimalarial aminoquinoline derivatives, method for their preparation and pharmaceutical composition containing them” (LA REGION WALLONNE, priority 1987, dated 1988)

system: P. berghei berghei (ANKA); assay: Causal prophylactic activity in the rodent malaria model (sporozoite-infected mice, single i.v. treatment 3 h after inoculation); format: in vivo, souris Swiss OF1; settings: ratio LD₅₀/CPD₅₀
From the text: Le modèle de la malaria du rongeur, Plasmodium berghei-Anopheles stephensi-souris, mis au point par MOST, H., HERMAN, R. & SCHOENFELD, C. (1967) Am. J. Trop. Med. Hyg. 16, 572-575, permet de déterminer l'activité prophylactique causale (schizonticide tissulaire) de nouveaux composés thérapeutiques. La procédure utilisée est dérivée de celle de MOST, H. & MONTUORI, W.A. (1975) Am. J. Trop. Med. Hyg. 24, 179-182. Il s'agit du système P. berghei berghei (ANKA)- Anopheles stephensi-souris Swiss OF1. La souche ANKA de P. b. berghei est entretenue cycliquement sur Anopheles stephensi. La souche de souris Swiss OF1 est particulièrement sensible à P. b. berghei qui produit une infection toujours mortelle.
Les moustiques femelles (80 à 100 individus par préparation) sont débarassés de leurs pattes, ailes et abdomen, puis homogénéisés à 4°C à l'aide d'un potter en verre, dans du milieu M 199 (GIBCO) contenant 10 % de sérum foetal de veau. La suspension de sporozoïtes est ensuite purifiée des débris du moustique par deux centrifugations successives ( 2 min. à 50 g et 5 min. à 200 g) et le surnageant recueilli est conservé à 4°C. Après comptage dans une chambre de Petroff-Hausser, le nombre de parasites est ajusté par dilution avec le même milieu froid, à la densité de 2 x 10⁵ sporozoïtes/ml. L'ensemble de la procédure est toujours effectuée dans un maximum de 35 minutes et permet de préserver la viabilité et l'infectivité des sporozoïtes.
Un volume de 0,5 ml de la suspension contenant 10⁵ sporozoïtes est injectée i.v. aux souris Swiss OF1 femelles de 18 à 22 g utilisées pour les tests thérapeutiques.
Des groupes de 20 à 25 souris infectées comme décrit ci-dessus sont traités en une seule injection intraveineuse de primaquine diphosphate (Pq) ou des dérivés monoacyls et aminoacides de la primaquine sous formes dichlorhydrates (X-Pq) trois heures après l'inoculation des sporozoïtes. Le volume injecté est ajusté en fonction du poids de la souris, à raison de 0,5 ml pour un poids de 25 g. Les composés sont dilués dans du tampon phosphate salin (PBS) pH 7.0 et le pH est ajusté à 7.0. Les souris infectées mais non traitées (5 par groupe) reçoivent le tampon seul et servent à contrôler l'infectivité des sporozoïtes.
Les souris expérimentales sont gardées durant une période de 50 jours. Le développement de la parasitémie est suivi en examinant quotidiennement des frottis de sang, colorés 60 min. au Giemsa à 5 % dans du tampon Sörensen à pH 7,2, à partir du 5ème jour et ce jusqu'au 15ème jour. Le nombre d'animaux infectés peut ainsi être déterminé. Ces résultats permettent d'établir la survie à long terme (LTS, le nombre de souris survivantes non parasitées sur le nombre de souris infectées et traitées). […]

Row | SMILES | index thérapeutique (LD₅₀/CPD₅₀)
1 | COc1cc(NC(C)CCCNC(=O)[C@H](C)N)c2ncccc2c1 (stereo partly drawn) [L-alanyl-Pq, N-1-L-alanyl, N-4-(méthoxy-6-quinolinyl-8) pentanediamine-1,4] | 7,5
2 | COc1cc(NC(C)CCCNC(=O)[C@H](CC(C)C)NC(=O)[C@H](C)N)c2ncccc2c1 (stereo partly drawn) [L-leucyl-L-alanyl-Pq, N-1-L-Alanyl-L-Leucyl, N-4-(Méthoxy-6-quinolinyl-8) pentanediamine-1,4] | 3,7
3 | COc1cc(NC(C)CCCNC(=O)[C@@H](N)CCCCN)c2ncccc2c1 (stereo partly drawn) [L-lysyl-Pq] | 2,6
4 | COc1cc(NC(C)CCCNC(=O)[C@@H](N)Cc2ccccc2)c2ncccc2c1 (stereo partly drawn) [L-phenylalanyl-Pq, N-1-L-phénylalanyl , N-4(methoxy-6-quinolinyl-8) pentanediamine-1,4] | 5,3
